PubChem BioAssay AID624099 – ICCB-Longwood, 2012
Test: 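Knock-downs relieving repression by E2 of an HPV18 LCR luciferase reporter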 (primary screen). System: human C33A cervical carcinoma cells (HPV-negative) stably expressing BPV1 E2 and an HPV18 LCR luciferase reporter. Knock-down reagent: siRNA pool against human genes, 40 nM. Duration: 72 h. Detection: 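Per-well luciferase luminescence, z-scored on each plate against the plate mean and SD with control wells left out, then averaged across three replicate plates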. Reading the numbers: mean z-score and z-score: higher = stronger reporter signal, weaker E2 silencing. Rule for the call: 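Mean z ≥ 2 together with z ≥ 2 in two or more of the three replicates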.
This is a random part of about 21,000 reagents. In the full data, 497 (2.4%) are marked active. 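Higher z means weaker E2 silencing; only reporter increases were scored, and knock-downs that hurt cell survival may mask genuine repressor factors.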

{"gene symbol": "SLC25A12", "mean z-score": -0.59, "z-score, replicate A": -0.47, "z-score, replicate B": -0.57, "z-score, replicate C": -0.74, "call": "inactive"}
{"gene symbol": "KRTAP26-1 (keratin associated protein 26-1)", "mean z-score": -0.35, "z-score, replicate A": -0.44, "z-score, replicate B": -0.24, "z-score, replicate C": -0.37, "call": "inactive"}
{"gene symbol": "CA13 (carbonic anhydrase 13)", "mean z-score": -0.53, "z-score, replicate B": -0.48, "z-score, replicate C": -0.57, "call": "inactive"}
{"gene symbol": "BCCIP (BRCA2 and CDKN1A interacting protein)", "mean z-score": 1.06, "z-score, replicate A": 1.29, "z-score, replicate B": 1.06, "z-score, replicate C": 0.81, "call": "inactive"}
{"gene symbol": "ZUP1 (zinc finger containing ubiquitin peptidase 1)", "mean z-score": -0.3, "z-score, replicate A": -0.41, "z-score, replicate B": -0.15, "z-score, replicate C": -0.34, "call": "inactive"}
{"gene symbol": "AD7C-NTP (retired record)", "mean z-score": 0.2, "z-score, replicate A": -0.16, "z-score, replicate B": 0.39, "z-score, replicate C": 0.38, "call": "inactive"}
{"gene symbol": "CEACAM20 (CEA cell adhesion molecule 20)", "mean z-score": -1.63, "z-score, replicate A": -1.24, "z-score, replicate B": -1.65, "z-score, replicate C": -2, "call": "inactive"}
{"gene symbol": "MED15 (mediator complex subunit 15)", "mean z-score": 1.17, "z-score, replicate A": 1.38, "z-score, replicate B": 1.26, "z-score, replicate C": 0.88, "call": "inactive"}
{"gene symbol": "LOC403312 (putative uncharacterized protein MGC39545)", "mean z-score": 0.16, "z-score, replicate A": -0.05, "z-score, replicate B": 0.4, "z-score, replicate C": 0.14, "call": "inactive"}
{"gene symbol": "PROKR2 (prokineticin receptor 2)", "mean z-score": -0.8, "z-score, replicate A": -1.01, "z-score, replicate B": -0.94, "z-score, replicate C": -0.46, "call": "inactive"}
{"gene symbol": "POGLUT3 (protein O-glucosyltransferase 3)", "mean z-score": 0.58, "z-score, replicate A": 0.49, "z-score, replicate B": 0.64, "z-score, replicate C": 0.59, "call": "inactive"}
{"gene symbol": "MRRF (mitochondrial ribosome recycling factor)", "mean z-score": -0.85, "z-score, replicate A": -0.89, "z-score, replicate B": -1, "z-score, replicate C": -0.66, "call": "inactive"}

A few values from above:
Result of CA13 (carbonic anhydrase 13) in “z-score, replicate C”: -0.57
For “mean z-score”, LOC403312 (putative uncharacterized protein MGC39545) is entered as 0.16
KRTAP26-1 (keratin associated protein 26-1), mean z-score → -0.35

The list goes on:
{"gene symbol": "CCNG1 (cyclin G1)", "mean z-score": -0.09, "z-score, replicate A": -0.13, "z-score, replicate B": -0.22, "z-score, replicate C": 0.08, "call": "inactive"}
{"gene symbol": "COL4A3 (collagen type IV alpha 3 chain)", "mean z-score": 0.04, "z-score, replicate A": 0.36, "z-score, replicate B": -0.09, "z-score, replicate C": -0.16, "call": "inactive"}
{"gene symbol": "NDUFA10 (NADH:ubiquinone oxidoreductase subunit A10)", "mean z-score": -1.21, "z-score, replicate A": -1.01, "z-score, replicate B": -1.29, "z-score, replicate C": -1.35, "call": "inactive"}
{"gene symbol": "CFAP100 (cilia and flagella associated protein 100)", "mean z-score": 1.21, "z-score, replicate A": 1.09, "z-score, replicate B": 1.24, "z-score, replicate C": 1.29, "call": "inactive"}
{"gene symbol": "BARX2 (BARX homeobox 2)", "mean z-score": 0.87, "z-score, replicate A": 0.71, "z-score, replicate B": 0.87, "z-score, replicate C": 1.02, "call": "inactive"}
{"gene symbol": "LOC401625 (retired record)", "mean z-score": 1.21, "z-score, replicate A": 0.67, "z-score, replicate B": 1.44, "z-score, replicate C": 1.51, "call": "inactive"}
{"gene symbol": "FAM78A (family with sequence similarity 78 member A)", "mean z-score": 0.99, "z-score, replicate A": 0.78, "z-score, replicate B": 1.08, "z-score, replicate C": 1.11, "call": "inactive"}
{"gene symbol": "PICALM (phosphatidylinositol binding clathrin assembly protein)", "mean z-score": 1.38, "z-score, replicate A": 1.39, "z-score, replicate B": 1.67, "z-score, replicate C": 1.07, "call": "inactive"}
{"gene symbol": "MS4A12 (membrane spanning 4-domains A12)", "mean z-score": 0.8, "z-score, replicate A": 0.67, "z-score, replicate B": 0.74, "z-score, replicate C": 1, "call": "inactive"}
